PMC12085566

Target: BG505 SOSIP.664 Env trimer (SOSIP-stabilized HIV-1 Env ectodomain) (HIV-1 isolate BG505)
Assay: cryo-EM structure

With “4-domain CD4 (from UniProt P01730 26-206) (receptor)” the stoichiometry N (per Env trimer (Populations 4 and 5)) was 3 and the stoichiometry N (per Env trimer) was 3.
